Values from PubChem BioAssay AID1259414 (Drosophila RNAi Screening Center, 2018)

Screen: 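Host factors increasing or decreasing Wolbachia levels in cultured fly cells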 (primary screen)
Cell system: Drosophila JW18 cells infected with Wolbachia
Reagents: long dsRNA against Drosophila genes, 0.25 µg dsRNA per well of a 384-well plate
Time to read-out: 5 days
Challenge: cells persistently infected with Wolbachia before knock-down; no added drug
Read-out: 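Imaged fluorescence in situ signal for Wolbachia 23S rRNA per DAPI-counted host cell, given as a robust z-score within each plate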
Reading the numbers: Wolbachia per cell robust z: higher = more Wolbachia per host cell than the plate typical
Active means: 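Active if absolute robust z reaches 1.5 in two or more of three replicates, leaving out multi- or no-target dsRNAs, genes unexpressed in JW18 and A1 wells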
In all, the deposit lists about 24,000 reagents; below is an unselected part of those that have a named target and a result. In the full data, about 1,210 (5%) got an active call. 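Inactive calls also include excluded dsRNAs with several or no targets, genes unexpressed in JW18, and well A1, regardless of score.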 Reagents against one gene are numbered here.

{"target":"eIF2alpha","dsRNA no.":1,"Wolbachia per cell robust z, rep 1":1.5,"Wolbachia per cell robust z, rep 2":-8.51,"Wolbachia per cell robust z, rep 3":3.36,"call":"active"}
{"target":"GstZ2","dsRNA no.":1,"Wolbachia per cell robust z, rep 1":0.354,"Wolbachia per cell robust z, rep 2":0.117,"Wolbachia per cell robust z, rep 3":1.26,"call":"inactive"}
{"target":"Ccz1","dsRNA no.":1,"Wolbachia per cell robust z, rep 1":1.12,"Wolbachia per cell robust z, rep 2":-0.541,"Wolbachia per cell robust z, rep 3":1.03,"call":"inactive"}
{"target":"Rh6","dsRNA no.":1,"Wolbachia per cell robust z, rep 1":-0.561,"Wolbachia per cell robust z, rep 2":0.128,"Wolbachia per cell robust z, rep 3":-0.944,"call":"inactive"}
{"target":"Rh6","dsRNA no.":2,"Wolbachia per cell robust z, rep 1":-0.232,"Wolbachia per cell robust z, rep 2":0.629,"Wolbachia per cell robust z, rep 3":0.324,"call":"inactive"}
{"target":"Mccc1","dsRNA no.":1,"Wolbachia per cell robust z, rep 1":-0.195,"Wolbachia per cell robust z, rep 2":0.178,"Wolbachia per cell robust z, rep 3":-9.54,"call":"inactive"}
{"target":"Mccc1","dsRNA no.":2,"Wolbachia per cell robust z, rep 1":0.557,"Wolbachia per cell robust z, rep 2":0.837,"Wolbachia per cell robust z, rep 3":-5.67,"call":"inactive"}
{"target":"Upf1","dsRNA no.":1,"Wolbachia per cell robust z, rep 1":-0.359,"Wolbachia per cell robust z, rep 2":-0.524,"Wolbachia per cell robust z, rep 3":-0.245,"call":"inactive"}
{"target":"Hug","dsRNA no.":1,"Wolbachia per cell robust z, rep 1":-1.19,"Wolbachia per cell robust z, rep 2":1.3,"Wolbachia per cell robust z, rep 3":-0.693,"call":"inactive"}
{"target":"Hug","dsRNA no.":2,"Wolbachia per cell robust z, rep 1":-0.158,"Wolbachia per cell robust z, rep 2":-1.07,"Wolbachia per cell robust z, rep 3":-0.511,"call":"inactive"}

Targets listed so far whose gene name begins with M or m (2):
{"target":"Mccc1","dsRNA no.":1,"Wolbachia per cell robust z, rep 1":-0.195,"Wolbachia per cell robust z, rep 2":0.178,"Wolbachia per cell robust z, rep 3":-9.54,"call":"inactive"}
{"target":"Mccc1","dsRNA no.":2,"Wolbachia per cell robust z, rep 1":0.557,"Wolbachia per cell robust z, rep 2":0.837,"Wolbachia per cell robust z, rep 3":-5.67,"call":"inactive"}

The listing continues:
{"target":"CG42795","dsRNA no.":1,"Wolbachia per cell robust z, rep 1":-0.108,"Wolbachia per cell robust z, rep 2":-0.273,"Wolbachia per cell robust z, rep 3":-0.197,"call":"inactive"}
{"target":"CG42795","dsRNA no.":2,"Wolbachia per cell robust z, rep 1":-2.17,"Wolbachia per cell robust z, rep 2":1.98,"Wolbachia per cell robust z, rep 3":-0.0464,"call":"inactive"}
{"target":"CG42795","dsRNA no.":3,"Wolbachia per cell robust z, rep 1":0.901,"Wolbachia per cell robust z, rep 2":-1,"Wolbachia per cell robust z, rep 3":-0.00401,"call":"inactive"}
{"target":"CG42795","dsRNA no.":4,"Wolbachia per cell robust z, rep 1":0.676,"Wolbachia per cell robust z, rep 2":-1.17,"Wolbachia per cell robust z, rep 3":0.0618,"call":"inactive"}
{"target":"CG42795","dsRNA no.":5,"Wolbachia per cell robust z, rep 1":0.875,"Wolbachia per cell robust z, rep 2":0.117,"Wolbachia per cell robust z, rep 3":0.0356,"call":"inactive"}
{"target":"Lztr1","dsRNA no.":1,"Wolbachia per cell robust z, rep 1":-1.62,"Wolbachia per cell robust z, rep 2":1.4,"Wolbachia per cell robust z, rep 3":-0.0787,"call":"inactive"}
{"target":"Lztr1","dsRNA no.":2,"Wolbachia per cell robust z, rep 1":0.201,"Wolbachia per cell robust z, rep 2":0.107,"Wolbachia per cell robust z, rep 3":0.454,"call":"inactive"}
{"target":"Lztr1","dsRNA no.":3,"Wolbachia per cell robust z, rep 1":-1.29,"Wolbachia per cell robust z, rep 2":-1.64,"Wolbachia per cell robust z, rep 3":-1.23,"call":"inactive"}
{"target":"IntS6","dsRNA no.":1,"Wolbachia per cell robust z, rep 1":1.41,"Wolbachia per cell robust z, rep 2":-1.38,"Wolbachia per cell robust z, rep 3":1.77,"call":"inactive"}
{"target":"IntS6","dsRNA no.":2,"Wolbachia per cell robust z, rep 1":2.13,"Wolbachia per cell robust z, rep 2":4.72,"Wolbachia per cell robust z, rep 3":2.3,"call":"active"}
{"target":"RpS10b","dsRNA no.":1,"Wolbachia per cell robust z, rep 1":-2.67,"Wolbachia per cell robust z, rep 2":-0.0458,"Wolbachia per cell robust z, rep 3":-3.6,"call":"active"}
{"target":"mrj","dsRNA no.":1,"Wolbachia per cell robust z, rep 1":0.809,"Wolbachia per cell robust z, rep 2":0.869,"Wolbachia per cell robust z, rep 3":-0.294,"call":"inactive"}
{"target":"mrj","dsRNA no.":2,"Wolbachia per cell robust z, rep 1":-0.459,"Wolbachia per cell robust z, rep 2":0.624,"Wolbachia per cell robust z, rep 3":0.916,"call":"inactive"}
{"target":"CG5386","dsRNA no.":1,"Wolbachia per cell robust z, rep 1":-0.16,"Wolbachia per cell robust z, rep 2":-0.227,"Wolbachia per cell robust z, rep 3":-0.143,"call":"inactive"}
